Data source: PubChem BioAssay AID624099 (ICCB-Longwood, 2012)

Aim: 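Knock-downs relieving repression by E2 of an HPV18 LCR luciferase reporter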 (primary screen)
Cell system: human C33A cervical carcinoma cells (HPV-negative) stably expressing BPV1 E2 and an HPV18 LCR luciferase reporter
Reagent: siRNA pool against human genes, 40 nM
Duration: 72 h
Read-out: 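HPV18 LCR reporter light per well, converted to plate-wise z-scores that exclude control wells, and averaged over triplicate plates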
Reading the numbers: mean z-score and z-score: higher = stronger reporter signal, weaker E2 silencing
Rule for the call: 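Hit if mean z-score reaches 2 and two or more of three replicate z-scores also reach 2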
The deposit covers about 21,000 reagents; below is an unselected part. 497 of all reagents (2.4%) were called active. 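Higher z means weaker E2 silencing; only reporter increases were scored, and knock-downs that hurt cell survival may mask genuine repressor factors.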 A number with no mark means an inactive call. The numbers tell different reagents against one gene apart.

The first 2 entries, to show the layout:
Gene	reagent	mean z-score	z-score, replicate A	z-score, replicate B	z-score, replicate C
PRAC1	1	-1.5	-1.55	-1.66	-1.28
KIF6	1	-0.2	-0.05	-0.22	-0.34

Main list, repeating the preview:
Gene	reagent	mean z-score	z-score, replicate A	z-score, replicate B	z-score, replicate C
PRAC1	1	-1.5	-1.55	-1.66	-1.28
KIF6	1	-0.2	-0.05	-0.22	-0.34
SLC5A12	1	1	0.7	0.79	1.52
DCAF4L2	1	1.11	0.97	1.04	1.31
TRPV3	1	-0.9	-0.73	-0.76	-1.2
IL36RN	1	0.59	0.73	0.5	0.54
TRIM54	1	-0.5	-0.68	-0.24	-0.57
LOC401062 (retired record)	1	-0.6	-0.32	-0.49	-0.98
UTP11	1	-0.37	-0.51	-0.04	-0.56
LOC389228 (retired record)	1	0.47	-0.07	0.82	0.65
POLR1G	1	0.39	0.61	0.43	0.14
ZNF483	1	-0.88	-0.56	-1.02	-1.04
ABCA5	1	-1.16	-1.29	-1.02	-1.16
TBC1D1	1	0.87	1.02	0.71	0.87
TBC1D1	2	-0.49	-0.44	-0.3	-0.72
ZFAT	1	-0.16	-0.25	-0.03	-0.2
HAPSTR1	1	-1.52	-1.57	-1.48	-1.49
GRIN3B	1	1.37	1.29	1.73	1.11
MRGPRX3	1	-0.32	0.04	-0.59	-0.42
KIF1B	1	-0.81	-0.64	-1.18	-0.62
STON1-GTF2A1L	1	2.05 (active)	1.48	2.1	2.58
BLVRB	1	0.22	0.2	0.24	0.23
LECT2	1	-0.18	0.03	-0.06	-0.53
LOC400880 (retired record)	1	-0.66	-0.82	-0.52	-0.64
ABHD17AP1	1	0.58	0.84	0.62	0.28
SLC67A1-AS	1	1.07	1.43	0.84	0.95
ABCA7	1	-0.49	-0.29	-0.81	-0.37
DMAP1	1	-0.51	-0.19	-0.48	-0.86
PDS5B	1	-0.6	-1.3	-0.12	-0.39
WSB2	1	0.12	-0.21	0.37	0.21
CFAP97	1	-0.56	-0.83	-0.55	-0.3
PPIL4	1	-0.88	-0.94	-0.82	-0.88
PLK4	1	-0.99	-1.11	-0.81	-1.06
TMEM26	1	-0.47	-0.86	-0.27	-0.29
CDRT15P3	1	0.5	0.13	0.84	0.55
GNA11	1	-0.11	0.1	-0.12	-0.31
EPHA10	1	-1.04	-1.51	-0.71	-0.91
CXCL10	1	-0.23	-0.06	-0.18	-0.46
BBIP1	1	1.6	1.63	1.91	1.26
RPSAP49	1	-1.66	-1.61	-1.62	-1.74
SPOP	1	-0.33	-0.43	-0.18	-0.4
ST20	1	-0.26	-0.5	-0.49	0.22
CLASP2	1	0.87	0.76	0.92	0.91
ESF1	1	0.71	0.84	0.7	0.59
DHX37	1	-0.99	-1.1	-1.23	-0.65
NR2C2	1	-0.11	-0.28	0.06	-0.12
ECT2L	1	-0.09	-0.04	-0.12	-0.11
POLE4	1	-0.24	-0.46	-0.21	-0.03
SLC25A16	1	0.34	0.46	0.43	0.14
TTC1	1	-0.42	-0.42	-0.34	-0.5
MKRN1	1	0.57	0.42	0.58	0.7
SPEF2	1	0.56	0.07	0.71	0.89
PIK3CD	1	-1.42	-1.66	-1.4	-1.2
COX14	1	1.68	1.58	1.48	1.99
MC2R	1	-1.52	-1.87	-1.84	-0.86
SMG5	1	0.1	-0.17	0.09	0.37
SLC36A3	1	0.05	-0.6	1.1	-0.36
AQP10	1	0.6	0.71	0.42	0.66
QDPR	1	-0.19	0.61	-0.57	-0.61
SF3B2	1	-0.98	-1.02	-0.69	-1.24
SPATA18	1	0.62	0.81	0.44	0.61
SEPTIN8	1	0.34	0.43	0.33	0.26
ACO1	1	1.35	1.28	1.46	1.31
RBSN	1	0.28	0.61	0.34	-0.12
INTS1	1	4.94 (active)	5.12	5.01	4.71
HNRNPL	1	-0.22	-0.13	-0.6	0.07
LINC00906	1	-0.01	0.08	0.27	-0.37
CASP8AP2	1	5.78 (active)	5.87	5.72	5.75
MFSD8	1	-0.64	-0.29	-0.98	-0.64
WAC-AS1	1	0.7	0.11	1.31	0.68
HNRNPA3	1	0.58	0.18	0.72	0.84
CYP11A1	1	0.86	1	0.89	0.68
LOC391403 (retired record)	1	-0.78	-0.74	-0.39	-1.21
